Results taken from PMC6613765 (Journal of Virology, 2019).

Test system: Vero E6 cells
Settings: read-out: MERS-CoV CC50

With Monensin sodium the CC50 was > 20 µM.
